The test system of the data set is VIM-2 and NDM-1 metallo-β-lactamases. Description: Inhibition of VIM-2 and NDM-1 MBLs (modality, reversibility, range).

As to `NCCN[C@H]1CC[C@H](CC(=O)N[C@H]2Cc3cccc(C(=O)O)c3OB2O)CC1` [Taniborbactam], the reversibility of inhibition result (enzymatic activity fully recovered after rapid jump dilution) was “reversible”. Moreover, the inhibition modality entry (steady-state kinetic analysis) is “competitive inhibitor”.

Source of the values: paper PMC7038240 (Antimicrobial Agents and Chemotherapy, 2020).
